Source: PMC7963221

Experiments:
[1] = target: SARS-CoV-2 RBD (WT) displayed on the surface of yeast (SARS-CoV-2) (UniProt P0DTC2); test: FACS
[2] = target: SARS-CoV RBD displayed on the surface of yeast (SARS-CoV) (UniProt P59594); test: FACS

Row | Substance | Kd [1] [nM] | Kd [2] [nM]
1 | LY-CoV555 | 1.49 | –
2 | S309 | – | 3.22
